Taken from: PubChem BioAssay AID1259414 (Drosophila RNAi Screening Center, 2018)
In all, the deposit lists about 24,000 reagents; shown is an unselected part of those that have a named target and a result. Over the whole deposit, about 1,210 (5%) got an active call. 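Inactive calls also include excluded dsRNAs with several or no targets, genes unexpressed in JW18, and well A1, regardless of score.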 The numbers tell different reagents against one gene apart. Names joined by + are all predicted targets of the reagent. No sequences are given here.

Aim: 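Host factors increasing or decreasing Wolbachia levels in cultured fly cells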 (primary screen)
System: Drosophila JW18 cells infected with Wolbachia
Reagent: long dsRNA against Drosophila genes, 0.25 µg dsRNA per well of a 384-well plate
Timing: 5 days
Treatment: cells persistently infected with Wolbachia before knock-down; no added drug
Detection: 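Imaged fluorescence in situ signal for Wolbachia 23S rRNA per DAPI-counted host cell, given as a robust z-score within each plate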
Direction: Wolbachia per cell robust z: higher = more Wolbachia per host cell than the plate typical
Call rule: 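Hit when robust z is 1.5 or more, or -1.5 or less, in at least two of three replicates; excludes dsRNAs with several or no targets, genes not expressed in JW18 and well A1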

Ctf4 | Wolbachia per cell robust z, rep 1: -1.27; Wolbachia per cell robust z, rep 2: 0.185; Wolbachia per cell robust z, rep 3: -0.43; Call: inactive
Gpa2 | Wolbachia per cell robust z, rep 1: -2.4; Wolbachia per cell robust z, rep 2: -2.87; Wolbachia per cell robust z, rep 3: -4.34; Call: inactive
Atg5 | Wolbachia per cell robust z, rep 1: -1.39; Wolbachia per cell robust z, rep 2: -0.127; Wolbachia per cell robust z, rep 3: -0.166; Call: inactive
CG13901 | Wolbachia per cell robust z, rep 1: -0.351; Wolbachia per cell robust z, rep 2: -2.31; Wolbachia per cell robust z, rep 3: -0.845; Call: inactive
CG5767 #1 | Wolbachia per cell robust z, rep 1: 0.46; Wolbachia per cell robust z, rep 2: 0.97; Wolbachia per cell robust z, rep 3: 0.487; Call: inactive
CG5767 #2 | Wolbachia per cell robust z, rep 1: -0.675; Wolbachia per cell robust z, rep 2: 0.0882; Wolbachia per cell robust z, rep 3: -0.359; Call: inactive
CG31010 | Wolbachia per cell robust z, rep 1: 0.903; Wolbachia per cell robust z, rep 2: 0.393; Wolbachia per cell robust z, rep 3: -1.07; Call: inactive
ihog #1 | Wolbachia per cell robust z, rep 1: -0.146; Wolbachia per cell robust z, rep 2: -6.64; Wolbachia per cell robust z, rep 3: 0.212; Call: inactive
ihog #2 | Wolbachia per cell robust z, rep 1: -0.423; Wolbachia per cell robust z, rep 2: -0.75; Wolbachia per cell robust z, rep 3: -0.802; Call: inactive
CG31345 #1 | Wolbachia per cell robust z, rep 1: -0.339; Wolbachia per cell robust z, rep 2: 0.479; Wolbachia per cell robust z, rep 3: 0.313; Call: inactive
CG31345 #2 | Wolbachia per cell robust z, rep 1: -1.05; Wolbachia per cell robust z, rep 2: -0.0857; Wolbachia per cell robust z, rep 3: -0.434; Call: inactive
Ggamma30A + borr | Wolbachia per cell robust z, rep 1: 3.59; Wolbachia per cell robust z, rep 2: -2.69; Wolbachia per cell robust z, rep 3: -0.15; Call: inactive

In a second layout: entries from further up.
{"Gene": "CG13901", "reagent": 1, "Wolbachia per cell robust z, rep 1": -0.351, "Wolbachia per cell robust z, rep 2": -2.31, "Wolbachia per cell robust z, rep 3": -0.845, "Call": "inactive"}
{"Gene": "CG5767", "reagent": 1, "Wolbachia per cell robust z, rep 1": 0.46, "Wolbachia per cell robust z, rep 2": 0.97, "Wolbachia per cell robust z, rep 3": 0.487, "Call": "inactive"}

The listing continues:
CG3176 + CR18166 + CG32817 #1 | Wolbachia per cell robust z, rep 1: 0.147; Wolbachia per cell robust z, rep 2: 1.03; Wolbachia per cell robust z, rep 3: 0.693; Call: inactive
CG3176 + CR18166 + CG32817 #2 | Wolbachia per cell robust z, rep 1: 0.991; Wolbachia per cell robust z, rep 2: -0.167; Wolbachia per cell robust z, rep 3: 0.205; Call: inactive
Arp8 #1 | Wolbachia per cell robust z, rep 1: -4.67; Wolbachia per cell robust z, rep 2: 0.532; Wolbachia per cell robust z, rep 3: 0.0953; Call: inactive
Arp8 #2 | Wolbachia per cell robust z, rep 1: 0.644; Wolbachia per cell robust z, rep 2: 1.29; Wolbachia per cell robust z, rep 3: 1.17; Call: inactive
CG43339 #1 | Wolbachia per cell robust z, rep 1: -0.333; Wolbachia per cell robust z, rep 2: 0.183; Wolbachia per cell robust z, rep 3: -0.381; Call: inactive
CG43339 #2 | Wolbachia per cell robust z, rep 1: -0.1; Wolbachia per cell robust z, rep 2: -0.583; Wolbachia per cell robust z, rep 3: -0.155; Call: inactive
Oatp74D #1 | Wolbachia per cell robust z, rep 1: -0.936; Wolbachia per cell robust z, rep 2: -0.771; Wolbachia per cell robust z, rep 3: -6.32; Call: inactive
Oatp74D #2 | Wolbachia per cell robust z, rep 1: -2.74; Wolbachia per cell robust z, rep 2: 0.387; Wolbachia per cell robust z, rep 3: -0.526; Call: inactive
gry #1 | Wolbachia per cell robust z, rep 1: -1.36; Wolbachia per cell robust z, rep 2: -0.292; Wolbachia per cell robust z, rep 3: -0.00989; Call: inactive
gry #2 | Wolbachia per cell robust z, rep 1: 1.39; Wolbachia per cell robust z, rep 2: 0.444; Wolbachia per cell robust z, rep 3: -0.484; Call: inactive
chk | Wolbachia per cell robust z, rep 1: 0.399; Wolbachia per cell robust z, rep 2: 0.596; Wolbachia per cell robust z, rep 3: 0.916; Call: inactive
CG33341 #1 | Wolbachia per cell robust z, rep 1: -0.734; Wolbachia per cell robust z, rep 2: -1.06; Wolbachia per cell robust z, rep 3: 0.314; Call: inactive
CG33341 #2 | Wolbachia per cell robust z, rep 1: 2.28; Wolbachia per cell robust z, rep 2: 0.358; Wolbachia per cell robust z, rep 3: -0.463; Call: inactive
CG33341 #3 | Wolbachia per cell robust z, rep 1: -0.46; Wolbachia per cell robust z, rep 2: -1.11; Wolbachia per cell robust z, rep 3: -0.0668; Call: inactive
